{
  "source": "patent US20250115620A1",
  "about": "“BRIDGED TRICYCLIC CARBAMOYLPYRIDONE COMPOUNDS AND USES THEREOF” (Gilead Sciences, Inc., priority 2022, published 2025)",
  "test_system": "pLAI reporter virus",
  "assay_type": "cell-based, HIV",
  "conditions": "EC50 (50% HS)/EC50 (CCM)",
  "data": [
    {"smiles": "C[C@H]1CC[C@]2(COC(F)(F)O2)[C@H]2CN1C(=O)c1c(O)c(=O)c(C(=O)NCc3c(F)cc(F)cc3F)cn12", "note": "[Example 141, (3′S,4R,7′R)-2,2-difluoro-12′-hydroxy-3′-methyl-1′,11′-dioxo-N-(2,4,6-trifluorobenzyl)-1′,4′,5′,11′-tetrahydro-3′H,7′H-spiro[[1,3]dioxolane-4,6′-[2,7]methanopyrido[1,2-a][1,4]diazonine]-10′-carboxamide]", "values": [
      {"measurement": "RLUC 50% HS Shift", "value": 1317, "unit": "×"}
    ]},
    {"smiles": "C[C@H]1CCC2(N=c3ccccc3=N2)[C@H]2CN1C(=O)c1c(O)c(=O)c(C(=O)NCc3c(F)cc(F)cc3F)cn12", "note": "[Example 142, (3′S,7′R)-12′-hydroxy-3′-methyl-1′,11′-dioxo-N-(2,4,6-trifluorobenzyl)-1′,4′,5′,11′-tetrahydro-3′H,7′H-spiro[benzo[d]imidazole-2,6′-[2,7]methanopyrido[1,2-a][1,4]diazonine]-10′-carboxamide]", "values": [
      {"measurement": "RLUC 50% HS Shift", "value": 1, "unit": "×"}
    ]},
    {"smiles": "C[C@H]1CC[C@]2(Cc3ccccc3O2)[C@H]2CN1C(=O)c1c(O)c(=O)c(C(=O)NCc3c(F)cc(F)cc3F)cn12", "note": "[Example 143, (2S,3′S,7′R)-12′-hydroxy-3′-methyl-1′,11′-dioxo-N-(2,4,6-trifluorobenzyl)-1′,4′,5′,11′-tetrahydro-3H,3′H,7′H-spiro[benzofuran-2,6′-[2,7]methanopyrido[1,2-a][1,4]diazonine]-10′-carboxamide]", "values": [
      {"measurement": "RLUC 50% HS Shift", "value": 784, "unit": "×"}
    ]},
    {"smiles": "C[C@H]1CC[C@@]2(Cc3ccccc3O2)[C@H]2CN1C(=O)c1c(O)c(=O)c(C(=O)NCc3c(F)cc(F)cc3F)cn12", "note": "[Example 144, (2R,3′S,7′R)-12′-hydroxy-3′-methyl-1′,11′-dioxo-N-(2,4,6-trifluorobenzyl)-1′,4′,5′,11′-tetrahydro-3H,3′H,7′H-spiro[benzofuran-2,6′-[2,7]methanopyrido[1,2-a][1,4]diazonine]-10′-carboxamide]", "values": [
      {"measurement": "RLUC 50% HS Shift", "value": 23, "unit": "×"}
    ]},
    {"smiles": "COC1=NS[C@]2(CC[C@H](C)N3C[C@H]2n2cc(C(=O)NCc4ccc(F)cc4F)c(=O)c(O)c2C3=O)C1", "note": "[Example 145, (3′S,5R,7′R)—N-(2,4-difluorobenzyl)-12′-hydroxy-3-methoxy-3′-methyl-1′,11′-dioxo-1′,4′,5′,11′-tetrahydro-3′H,4H,7′H-spiro[isothiazole-5,6′-[2,7]methanopyrido[1,2-a][1,4]diazonine]-10′-carboxamide]", "values": [
      {"measurement": "RLUC 50% HS Shift", "value": 7, "unit": "×"}
    ]},
    {"smiles": "COc1ccc(CN2C(C)=NO[C@@]23CC[C@H](C)N2C[C@H]3n3cc(C(=O)NCc4ccc(F)cc4F)c(=O)c(O)c3C2=O)cc1", "note": "[Example 147, (3′S,5R,7′R)—N-(2,4-difluorobenzyl)-12′-hydroxy-4-(4-methoxybenzyl)-3,3′-dimethyl-1′,11′-dioxo-1′,4′,5′,11′-tetrahydro-3′H,4H,7′H-spiro[[1,2,4]oxadiazole-5,6′-[2,7]methanopyrido[1,2-a][1,4]diazonine]-10′-carboxamide]", "values": [
      {"measurement": "RLUC 50% HS Shift", "value": 10, "unit": "×"}
    ]},
    {"smiles": "CC1=NO[C@@]2(CC[C@H](C)N3C[C@H]2n2cc(C(=O)NCc4ccc(F)cc4F)c(=O)c(O)c2C3=O)N1", "note": "[Example 148, (3′S,5R,7′R)—N-(2,4-difluorobenzyl)-12′-hydroxy-3,3′-dimethyl-1′,11′-dioxo-1′,4′,5′,11′-tetrahydro-3′H,4H,7′H-spiro[[1,2,4]oxadiazole-5,6′-[2,7]methanopyrido[1,2-a][1,4]diazonine]-10′-carboxamide]", "values": [
      {"measurement": "RLUC 50% HS Shift", "value": 19, "unit": "×"}
    ]},
    {"smiles": "CC1=NO[C@@]2(CC[C@H](C)N3C[C@H]2n2cc(C(=O)NCc4ccc(F)cc4F)c(=O)c(O)c2C3=O)N1C", "note": "[Example 149a, (3′S,5R,7′R)—N-(2,4-difluorobenzyl)-12′-hydroxy-3,3′,4-trimethyl-1′,11′-dioxo-1′,4′,5′,11′-tetrahydro-3′H,4H,7′H-spiro[[1,2,4]oxadiazole-5,6′-[2,7]methanopyrido[1,2-a][1,4]diazonine]-10′-carboxamide]", "values": [
      {"measurement": "RLUC 50% HS Shift", "value": 6, "unit": "×"}
    ]},
    {"smiles": "CC1=N[C@]2(CC[C@H](C)N3C[C@H]2n2cc(C(=O)NCc4ccc(F)cc4F)c(=O)c(O)c2C3=O)ON1C", "note": "[Example 149b, (3′S,5R,7′R)—N-(2,4-difluorobenzyl)-12′-hydroxy-2,3,3′-trimethyl-1′,11′-dioxo-1′,4′,5′,11′-tetrahydro-2H,3′H,7′H-spiro[[1,2,4]oxadiazole-5,6′-[2,7]methanopyrido[1,2-a][1,4]diazonine]-10′-carboxamide]", "values": [
      {"measurement": "RLUC 50% HS Shift", "value": 16, "unit": "×"}
    ]},
    {"smiles": "[2H]C([2H])([2H])OC1=NO[C@@]2(CC[C@H](C)N3C[C@H]2n2cc(C(=O)NCc4ccc(F)cc4F)c(=O)c(O)c2C3=O)C1", "note": "[Example 153, (3′S,5S,7′R)—N-(2,4-difluorobenzyl)-12′-hydroxy-3-(methoxy-d3)-3′-methyl-1′,11′-dioxo-1′,4′,5′,11′-tetrahydro-3′H,4H,7′H-spiro[isoxazole-5,6′-[2,7]methanopyrido[1,2-a][1,4]diazonine]-10′-carboxamide]", "values": [
      {"measurement": "RLUC 50% HS Shift", "value": 67, "unit": "×"}
    ]},
    {"smiles": "C[C@H]1CC[C@]2(CC(S(C)(=O)=O)=NO2)[C@H]2CN1C(=O)c1c(O)c(=O)c(C(=O)NCc3c(F)cc(F)cc3F)cn12", "note": "[Example 154, (3′S,5S,7′R)-12′-hydroxy-3′-methyl-3-(methylsulfonyl)-1′,11′-dioxo-N-(2,4,6-trifluorobenzyl)-1′,4′,5′,11′-tetrahydro-3′H,4H,7′H-spiro[isoxazole-5,6′-[2,7]methanopyrido[1,2-a][1,4]diazonine]-10′-carboxamide]", "values": [
      {"measurement": "RLUC 50% HS Shift", "value": 18, "unit": "×"}
    ]},
    {"smiles": "CC1=NO[C@@]2(CC[C@H](CF)N3C[C@H]2n2cc(C(=O)NCc4ccc(F)cc4F)c(=O)c(O)c2C3=O)C1", "note": "[Example 155, (3′R,5S,7′R)—N-(2,4-difluorobenzyl)-3′-(fluoromethyl)-12′-hydroxy-3-methyl-1′,11′-dioxo-1′,4′,5′,11′-tetrahydro-3′H,4H,7′H-spiro[isoxazole-5,6′-[2,7]methanopyrido[1,2-a][1,4]diazonine]-10′-carboxamide]", "values": [
      {"measurement": "RLUC 50% HS Shift", "value": 129, "unit": "×"}
    ]},
    {"smiles": "C[C@H]1CC[C@]2(CC(=O)NO2)[C@H]2CN1C(=O)c1c(O)c(=O)c(C(=O)NCc3ccc(F)cc3F)cn12", "note": "[Example 156, (3′S,5S,7′R)—N-(2,4-difluorobenzyl)-12′-hydroxy-3′-methyl-1′,3,11′-trioxo-1′,4′,5′,11′-tetrahydro-3′H,7′H-spiro[isoxazolidine-5,6′-[2,7]methanopyrido[1,2-a][1,4]diazonine]-10′-carboxamide]", "values": [
      {"measurement": "RLUC 50% HS Shift", "value": 3, "unit": "×"}
    ]},
    {"smiles": "CCN1O[C@@]2(CC[C@H](C)N3C[C@H]2n2cc(C(=O)NCc4c(F)cc(F)cc4F)c(=O)c(O)c2C3=O)CC1=O", "note": "[Example 157, (3′S,5S,7′R)-2-ethyl-12′-hydroxy-3′-methyl-1′,3,11′-trioxo-N-(2,4,6-trifluorobenzyl)-1′,4′,5′,11′-tetrahydro-3′H,7′H-spiro[isoxazolidine-5,6′-[2,7]methanopyrido[1,2-a][1,4]diazonine]-10′-carboxamide]", "values": [
      {"measurement": "RLUC 50% HS Shift", "value": 12, "unit": "×"}
    ]},
    {"smiles": "C[C@H]1CC[C@]2(CC(=O)N(Cc3ccc(Br)cc3)O2)[C@H]2CN1C(=O)c1c(O)c(=O)c(C(=O)NCc3c(F)cc(F)cc3F)cn12", "note": "[Example 158, (3′S,5S,7′R)-2-(4-bromobenzyl)-12′-hydroxy-3′-methyl-1′,3,11′-trioxo-N-(2,4,6-trifluorobenzyl)-1′,4′,5′,11′-tetrahydro-3′H,7′H-spiro[isoxazolidine-5,6′-[2,7]methanopyrido[1,2-a][1,4]diazonine]-10′-carboxamide]", "values": [
      {"measurement": "RLUC 50% HS Shift", "value": 4, "unit": "×"}
    ]},
    {"smiles": "C[C@H]1CC[C@]2(CC(=O)N(Cc3ccccn3)O2)[C@H]2CN1C(=O)c1c(O)c(=O)c(C(=O)NCc3c(F)cc(F)cc3F)cn12", "note": "[Example 159, (3′S,5S,7′R)-12′-hydroxy-3′-methyl-1′,3,11′-trioxo-2-(pyridin-2-ylmethyl)-N-(2,4,6-trifluorobenzyl)-1′,4′,5′,11′-tetrahydro-3′H,7′H-spiro[isoxazolidine-5,6′-[2,7]methanopyrido[1,2-a][1,4]diazonine]-10′-carboxamide]", "values": [
      {"measurement": "RLUC 50% HS Shift", "value": 1, "unit": "×"}
    ]},
    {"smiles": "C[C@H]1CC[C@]2(CC(=O)N(Cc3cccnc3)O2)[C@H]2CN1C(=O)c1c(O)c(=O)c(C(=O)NCc3c(F)cc(F)cc3F)cn12", "note": "[Example 160, (3′S,5S,7′R)-12′-hydroxy-3′-methyl-1′,3,11′-trioxo-2-(pyridin-3-ylmethyl)-N-(2,4,6-trifluorobenzyl)-1′,4′,5′,11′-tetrahydro-3′H,7′H-spiro[isoxazolidine-5,6′-[2,7]methanopyrido[1,2-a][1,4]diazonine]-10′-carboxamide]", "values": [
      {"measurement": "RLUC 50% HS Shift", "value": 0, "unit": "×"}
    ]},
    {"smiles": "C[C@H]1CC[C@]2(CC(=O)N(Cc3nc4ccccc4s3)O2)[C@H]2CN1C(=O)c1c(O)c(=O)c(C(=O)NCc3c(F)cc(F)cc3F)cn12", "note": "[Example 161, (3′S,5S,7′R)-2-(benzo[d]thiazol-2-ylmethyl)-12′-hydroxy-3′-methyl-1′,3,11′-trioxo-N-(2,4,6-trifluorobenzyl)-1′,4′,5′,11′-tetrahydro-3′H,7′H-spiro[isoxazolidine-5,6′-[2,7]methanopyrido[1,2-a][1,4]diazonine]-10′-carboxamide]", "values": [
      {"measurement": "RLUC 50% HS Shift", "value": 2, "unit": "×"}
    ]},
    {"smiles": "C[C@H]1CC[C@]2(CC(=O)N(Cc3nc4ccccc4[nH]3)O2)[C@H]2CN1C(=O)c1c(O)c(=O)c(C(=O)NCc3c(F)cc(F)cc3F)cn12", "note": "[Example 162, (3′S,5S,7′R)-2-((1H-benzo[d]imidazol-2-yl)methyl)-12′-hydroxy-3′-methyl-1′,3,11′-trioxo-N-(2,4,6-trifluorobenzyl)-1′,4′,5′,11′-tetrahydro-3′H,7′H-spiro[isoxazolidine-5,6′-[2,7]methanopyrido[1,2-a][1,4]diazonine]-10′-carboxamide]", "values": [
      {"measurement": "RLUC 50% HS Shift", "value": 4, "unit": "×"}
    ]},
    {"smiles": "C[C@H]1CC[C@]2(CC(=O)N(Cc3nc4ccccc4n3C)O2)[C@H]2CN1C(=O)c1c(O)c(=O)c(C(=O)NCc3c(F)cc(F)cc3F)cn12", "note": "[Example 163, (3′S,5S,7′R)-12′-hydroxy-3′-methyl-2-((1-methyl-1H-benzo[d]imidazol-2-yl)methyl)-1′,3,11′-trioxo-N-(2,4,6-trifluorobenzyl)-1′,4′,5′,11′-tetrahydro-3′H,7′H-spiro[isoxazolidine-5,6′-[2,7]methanopyrido[1,2-a][1,4]diazonine]-10′-carboxamide]", "values": [
      {"measurement": "RLUC 50% HS Shift", "value": 2, "unit": "×"}
    ]}
  ]
}
